Measured values from several laboratories, pooled; numbers as filed in NIAID ChemDB.

Shared fields: whole-cell or culture tests; agent: Mycobacterium avium complex; read-out: MIC

An empty or dashed field is not shown. Neighbouring rows are from separate reports.

structure	strain	read by	result
NCC[C@H](O)C(=O)N[C@@H]1C[C@H](N)[C@@H](O[C@H]2O[C@H](CN)[C@@H](O)[C@H](O)[C@H]2O)[C@H](O)[C@H]1O[C@H]1O[C@H](CO)[C@@H](O)[C@H](N)[C@H]1O	866	-	5 µg/mL
NC[C@H]1O[C@H](O[C@H]2[C@H](O)[C@@H](O[C@H]3O[C@H](CO)[C@@H](O)[C@H](N)[C@H]3O)[C@H](N)C[C@@H]2N)[C@H](O)[C@@H](O)[C@@H]1O	N-319 (HIV-)	-	4 µg/mL
NC[C@H]1O[C@H](O[C@H]2[C@H](O[C@@H]3O[C@H](CO)[C@@H](O)[C@H]3O)[C@@H](O)[C@H](N)C[C@@H]2N)[C@H](N)[C@@H](O)[C@@H]1O	TMC 1473	-	0.78 µg/mL
CO[C@H]1/C=C/O[C@@]2(C)Oc3c(C)c(O)c4c(O)c(c(/C=N/N5CCN(C/C=C/c6ccccc6)CC5)c(O)c4c3C2=O)NC(=O)/C(C)=C\C=C\[C@H](C)[C@H](O)[C@@H](C)[C@@H](O)[C@@H](C)[C@H](OC(C)=O)[C@@H]1C	CH4	-	0.06 µg/mL
CC[C@@H](CO)NCCN[C@@H](CC)CO	N-979 (HIV+)	-	1 µg/mL
NC[C@H]1O[C@H](O[C@H]2[C@H](O)[C@@H](O[C@H]3O[C@H](CO)[C@@H](O)[C@H](N)[C@H]3O)[C@H](N)C[C@@H]2N)[C@H](O)[C@@H](O)[C@@H]1O	TMC 1467	-	<0.01 µg/mL
CN1CCN(c2cc3c(cc2F)c(=O)c(C(=O)O)cn3-c2ccc(F)cc2)CC1	3218	-	16 µg/mL
CC(C)N=c1cc2n(-c3ccc(Cl)cc3)c3ccccc3nc-2cc1Nc1ccc(Cl)cc1	562/HIV+	-	0.12 µg/mL
CO[C@H]1/C=C/O[C@@]2(C)Oc3c(C)c(O)c4c(O)c(c(/C=N/N5CCN(C)CC5)c(O)c4c3C2=O)NC(=O)/C(C)=C\C=C\[C@H](C)[C@H](O)[C@@H](C)[C@@H](O)[C@@H](C)[C@H](OC(C)=O)[C@@H]1C	804/HIV+	-	2 µg/mL
CN(C)CC1CCN(c2c(F)cc3c(=O)c(C(=O)O)cn(C4CC4)c3c2F)C1	PI12/39	-	0.5 µg/mL
NCC[C@H](O)C(=O)N[C@@H]1C[C@H](N)[C@@H](O[C@H]2O[C@H](CN)[C@@H](O)[C@H](O)[C@H]2O)[C@H](O)[C@H]1O[C@H]1O[C@H](CO)[C@@H](O)[C@H](N)[C@H]1O	TMC 1403	-	0.78 µg/mL
CN1CC2CCC1CN2c1c(F)cc2c(=O)c(C(=O)O)cn(C3CC3)c2c1F	1172733	-	1 µg/mL
CN[C@@H]1[C@H](O[C@H]2[C@H](O[C@H]3[C@H](O)[C@@H](O)[C@H](N=C(N)N)[C@@H](O)[C@@H]3N=C(N)N)O[C@@H](C)[C@]2(O)C=O)O[C@@H](CO)[C@H](O)[C@H]1O	Isolate C-49	-	100 µg/mL
CC1CN(c2c(F)cc3c(=O)c(C(=O)O)cn(C4CC4)c3c2F)CC(C)N1	1172733	-	1 µg/mL
CO[C@H]1/C=C/O[C@@]2(C)Oc3c(C)c(O)c4c(O)c(c(/C=N/N5CCN(C)CC5)c(O)c4c3C2=O)NC(=O)/C(C)=C\C=C\[C@H](C)[C@H](O)[C@@H](C)[C@@H](O)[C@@H](C)[C@H](OC(C)=O)[C@@H]1C	3219	-	2 µg/mL
CO[C@H]1/C=C/O[C@@]2(C)Oc3c(C)c(O)c4c(O)c(c(/C=N/N5CCN(C)CC5)c(O)c4c3C2=O)NC(=O)/C(C)=C\C=C\[C@H](C)[C@H](O)[C@@H](C)[C@@H](O)[C@@H](C)[C@H](OC(C)=O)[C@@H]1C	1171	-	2 µg/mL
O=C(O)c1cn(C2CC2)c2c(F)c(N3CC4CC3CN4)c(F)cc2c1=O	1915112	-	8 µg/mL
NC[C@@H]1O[C@H](O[C@H]2[C@@H](O)[C@H](O[C@@H]3[C@@H](O)[C@H](N)C[C@H](N)[C@H]3O[C@H]3O[C@H](CO)[C@@H](O)C[C@H]3N)O[C@@H]2CO)[C@H](N)[C@@H](O)[C@@H]1O[C@H]1O[C@H](CO)[C@@H](O)[C@H](O)[C@@H]1O	Isolate 64	-	6.25 µg/mL
O=C(O)c1cn(C2CC2)c2c(F)c(N3CC4C(CO)C4C3)c(F)cc2c1=O	1172733	-	8 µg/mL
CC1COc2c(N3CCN(C)CC3)c(F)cc3c(=O)c(C(=O)O)cn1c23	CIPT 14031005	-	20 µg/mL
NC[C@@H]1O[C@H](O[C@H]2[C@@H](O)[C@H](O[C@@H]3[C@@H](O)[C@H](N)C[C@H](N)[C@H]3O[C@H]3O[C@H](CO)[C@@H](O)[C@H](O)[C@H]3N)O[C@@H]2CO)[C@H](N)[C@@H](O)[C@@H]1O	535/HIV+	-	3.12 µg/mL
C[C@@H]1CN(c2c(F)c(N)c3c(=O)c(C(=O)O)cn(C4CC4)c3c2F)C[C@H](C)N1	19	broth dilution	1 µg/mL
CC[C@@H](CO)NCCN[C@@H](CC)CO	1854-4	-	1.9 µg/mL
CC1CN(c2c(F)c(N)c3c(=O)c(C(=O)O)cn(C4CC4)c3c2F)CCN1C	1988557	-	0.5 µg/mL
CO[C@H]1/C=C/O[C@@]2(C)Oc3c(C)c(O)c4c(O)c(c(/C=N/N5CCN(C)CC5)c(O)c4c3C2=O)NC(=O)/C(C)=C\C=C\[C@H](C)[C@H](O)[C@@H](C)[C@@H](O)[C@@H](C)[C@H](OC(C)=O)[C@@H]1C	13887 (serotype 14)	-	0.4 µg/mL
CCn1cc(C(=O)O)c(=O)c2cc(F)c(N3CCNCC3)nc21	CIPT 14031001	-	10 µg/mL
CC(C)N=c1cc2n(-c3ccc(Cl)cc3)c3ccccc3nc-2cc1Nc1ccc(Cl)cc1	827/HIV+	-	0.25 µg/mL
CN[C@@H]1[C@H](O[C@H]2[C@H](O[C@H]3[C@H](O)[C@@H](O)[C@H](N=C(N)N)[C@@H](O)[C@@H]3N=C(N)N)O[C@@H](C)[C@]2(O)C=O)O[C@@H](CO)[C@H](O)[C@H]1O	13016 (serotype 4)	-	3.2 µg/mL
NCC[C@H](O)C(=O)N[C@@H]1C[C@H](N)[C@@H](O[C@H]2O[C@H](CN)[C@@H](O)[C@H](O)[C@H]2O)[C@H](O)[C@H]1O[C@H]1O[C@H](CO)[C@@H](O)[C@H](N)[C@H]1O	3215	-	16 µg/mL

For reference, 2 entries again:

structure | strain | read by | result
CO[C@H]1/C=C/O[C@@]2(C)Oc3c(C)c(O)c4c(O)c(c(/C=N/N5CCN(C)CC5)c(O)c4c3C2=O)NC(=O)/C(C)=C\C=C\[C@H](C)[C@H](O)[C@@H](C)[C@@H](O)[C@@H](C)[C@H](OC(C)=O)[C@@H]1C | 1171 | - | 2 µg/mL
NC[C@H]1O[C@H](O[C@H]2[C@H](O[C@@H]3O[C@H](CO)[C@@H](O)[C@H]3O)[C@@H](O)[C@H](N)C[C@@H]2N)[C@H](N)[C@@H](O)[C@@H]1O | TMC 1473 | - | 0.78 µg/mL